# Human monoclonal antibodies against the spike receptor-binding domain (heavy:light variable regions). IC50 against pseudoviruses bearing the spike of naturally observed variants; lower = stronger; >10 µg/ml means not reached at the top dose. No active / inactive call. The stated detection limit is 0.0005 µg/ml; values near or below 0.001 µg/ml lie at the floor of the assay.
# B1: XGv-047 (protein)
# chain 1: QVQLVQSGAEVKKPGSSVKVSCKTSGNTFSSYTITWVRQAPGQGLEWMGRIMPMLGIPNYAQKFQGRVKIIADKSTSTAYLELSSLTSEDTALYYCACGRLGESSLYLIDYWGQGTQVTVSS
# chain 2: NFMLTQPHSVSESPGKTVTISCTRTSGSIASNYVQWYQRRPGSAPITLIYEDNQRPSGVPDRFSGSIDSSSNSASLSISGLKTEDEADYFCQSYDLSNWVFGGGTKLTVL
# B2: XGv-051 (protein)
# chain 1: QVQLVQSGAEVKKPGSSVKVSCKASGGTFSNYALSWVRQAPGQGLEWMGGIIPIFGTTNYAQKFQGRVTITADESTSTAYMELSSLRSEDTAVYYCARLDGYSFGHDRYYQDGMDDWGPGTTVTVSS
# chain 2: DIQMTQSPSSLSASVGDRVTITCRASQAIRNDLGWYQQKPGKAPKCLIYAASTLQSGVPSRFSGSGSGTEFTLTISSLQPEDFATYFCLQQNIYPRTFGQGTKVEI
# B3: XGv-107 (protein)
# chain 1: QITLKESGPTLVKPTQTLTLTCTFSELSLSTSGVGVGWIRQPPGKALEWLALIYWDGDKRYSPSLKSRLTITKGTSKNQVVLTMTNMDPVDTATYYCAHHTVVTIFDYWGQGTLVTVSS
# chain 2: QSALTQPASVSGSPGQSITISCTATSSDVGAYNYVSWYQQHPGKAPKLMIYEVSNRPSGVSNRFSGSKSGNTASLTISGLQAEDEADYYCSSYTTSSTVFGGGTKLTVL
# B4: XG2v-126 (protein)
# chain 1: QVQLVQSGAEVKKPGASVKVSCKASGYSFTGYYMNWVRQAPGQGLEWMGWINPNSGGTNYAQKFQGRVTMTRDASISTAYMELSRLRSDDTAVYYCASEGQLVRGGYMDVWGKGTTVTVSS
# chain 2: QSVLTQPPSVSEAPRQRVTISCSGSSSNIGNNAVNWYQQLPGKAPKLLIYYDDLLPSGVSDRFSGSKSGTSASLAISGLQSEDEADYYCASWDDRLNGVVFGGGTKL
# B5: XGv-016 (protein)
# chain 1: QVQLVQSGTEVRKPGASVTVSCKASGYTFTTYHMHWVRRAPGQGLEWMGIIDPGTGGASYPQKFRGRVTLTRDTSTNTVYMELSSLRFQDTAIYYCARAEGSSWLGWFDPWGQGTLVTVSS
# chain 2: QSVLTQPPSASGTPGQRVSISCSGSSSNIGTNYVYWYQQLPGTAPKLLIYKNNQRPSGVPDRFSGSKSGTSASLAISGLRSEDEADYFCASWDNGLSGSGWVFGGGTKLTV
# B6: XG2v-095 (protein)
# chain 1: QVQLVQSGAEVKKPGSSVKVSCKASGGTFSSYAISWVRQAPGQGLEWMGGIIPIFGTAYYAQKFQGRVTITADESTSTAYMELSSLRSEDTAVYYCARQSRVNGYSYAYHFDYWGQGTLVTVSS
# chain 2: QSALTQPASVSGSPGQSITISCTGTSSDVGSYNLVSWYQQHPGKAPKLLIFDVSKRPSGVSNRFSGSKSANTASLTISGLQAEDEADYYCCSYAGSSTWVFGGGTKL
# B7: XGv-001 (protein)
# chain 1: EVQLVESGGGLVKPGGSLRLSCAASGFTFNRYTLNWVRQAPGKGLEWVSSISSNSEYISYADSVKGRFTLSRDNAKNSMFLQMNSLRAEDTAVYYCARASPYDILTEGAFDYWGQGTLVTVSS
# chain 2: EIVMTQSPATLSVSPGERVTLSCRASLSVSTNLAWYQQKPGQAPRLLIYGASTRATGLPARFSGSGSGTEFTLTITSLQSEDFAVYYCQQYHEWPTYTFGQGTKVEIK
# B8: XGv-080 (protein)
# chain 1: QVQLQESGPGLVKPSGTLSLTCIVSGGSVTSGSYYWSWIRQPPGKGLEWIGYISYSGSTNYNPSLKSRVTISVDTSKNQFSLKLTSVTAADTAVYHCATRAYSTSWLGEGDAFDIWGQGTMVTVSS
# chain 2: EIVLTQSPGTLSLSPGERATLSCRASQSVSYTYLAWFQQKPGQAPRLLIYGAFSRAPGIPDRFSGSGSGTDFTLTISRLEPEDFAVYYCQQYGSSIFTFGPGTKVDIK
# B9: XGv-049 (protein)
# chain 1: EVQLVESGGGLVQPGGSLRLSCAASGFTFSGFDMHWLRQDRGRGLEWVSTIGTSGDTYYSDSVKGRFTISRENAKNSLYLQMNTLRVGDTAVYYCARDSGTTVTILDSWGQGTLVTVSS
# chain 2: DIQMTQSPSSLSASLGDRVTITCRASQSIGRFLNWFQQKPGKAPKLLISDSSSLQSGVPSRFSGSGSGTDFTLSISSLQPEDFATYYCQQSYSNPQITFGPGTKVDVK
# B10: XGv-040 (protein)
# chain 1: EVQLVESGGGLIQPGGSLRLSCAASGFIVSNNYMSWVRQAPGKGLEWVSVIYSGGSTYYADSVKGRFTISRDNSKNTLYLQMNSLRAEDTAVYYCARDRGSSGYLGDQPYDYWGQGTLVTVSS
# chain 2: DIQMTQSPSSLSASVGDRVTITCQASQDISNSLNWYQQKPGKAPKLLIYGVSNLETGVPLRFSGSGSGTDFTFTISSLQPEDVATYYCQQYNNLPVTFGGGTRVEI
# B11: XGv-074 (protein)
# chain 1: EVQLVESGGGLIQPGGSLRLSCAASGITVSANYMSWVRQAPGKGLEWVSVIYSGGSTYYADSVKGRFTISRDHSKNTLYLQMKNLRAEDTAVYYCARDRGSSGYLGDQPYEYWGQGTLVTVSS
# chain 2: DIQMTQSPSSLSASVGDRVTITCQASQDINKYLNWYQQKPGKAPKLLIYGASNLETGVPSRFSGSGSGTDFTFTISSLRPEDIATYYCQQYDPLPVTFGGGTRVEIK
# B12: XGv-032 (protein)
# chain 1: EVQLVESGGGLVQPGGSLRLSCAASGFRFSIYDMHWVRQTTGKGLEWVSGFGTTGDTYYPDSVKGRFTISREDAKNSLYLQMNSLRPGDAAMYYCARVGRGFGEIGYDFWGQGTLVTVSS
# chain 2: SYVLTQPPSVSVAPGKTARITCGGNNIGSKSVHWYQQKPGQAPVLVIYYNSDRPSGIPERFSGSNSGNTATLTISGVEAGDEADYYCQVWNSRSDHAVVFGGGTRLTV
# Target: SARS-CoV-2 Omicron BA.1 spike pseudovirus
# Test: pseudovirus neutralization IC50; higher = weaker neutralization
# Procedure: (§1)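 Single-round VSV luciferase pseudovirus mixed with antibody dilutions for 1 h and put on Huh-7 cells for about a day; IC50 from the dose curve.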
row,Binder,pseudovirus neutralization IC50
1,B1,0.335 µg/mL
2,B2,0.00689 µg/mL
3,B3,0.781 µg/mL
4,B4,0.649 µg/mL
5,B5,0.0511 µg/mL
6,B6,0.604 µg/mL
7,B7,> 10 µg/mL
8,B8,0.223 µg/mL
9,B9,> 10 µg/mL
10,B10,> 10 µg/mL
11,B11,0.276 µg/mL
12,B12,> 10 µg/mL

# Target: SARS-CoV-2 Omicron BA.2 spike pseudovirus
# Test: as above
# Procedure: as §1
row,Binder,pseudovirus neutralization IC50
1,B1,0.0224 µg/mL
2,B2,0.00714 µg/mL
3,B3,0.00956 µg/mL
4,B4,0.569 µg/mL
5,B5,0.0604 µg/mL
6,B6,0.319 µg/mL
7,B7,> 10 µg/mL
8,B8,0.357 µg/mL
9,B9,> 10 µg/mL
10,B10,> 10 µg/mL
11,B11,0.0966 µg/mL
12,B12,> 10 µg/mL

# Target: SARS-CoV-2 Omicron BA.2.75 spike pseudovirus
# Test: as above
# Procedure: as §1
row,Binder,pseudovirus neutralization IC50
1,B1,0.242 µg/mL
2,B2,0.00741 µg/mL
3,B3,0.678 µg/mL
4,B4,0.234 µg/mL
5,B5,0.0615 µg/mL
6,B6,2.94 µg/mL
7,B7,> 10 µg/mL
8,B8,0.282 µg/mL
9,B9,> 10 µg/mL
10,B10,> 10 µg/mL
11,B11,0.0227 µg/mL
12,B12,> 10 µg/mL

# Target: SARS-CoV-2 Omicron BA.5 spike pseudovirus
# Test: as above
# Procedure: as §1
row,Binder,pseudovirus neutralization IC50
1,B1,0.312 µg/mL
2,B2,> 10 µg/mL
3,B3,0.0099 µg/mL
4,B4,4.53 µg/mL
5,B5,0.0622 µg/mL
6,B6,> 10 µg/mL
7,B7,> 10 µg/mL
8,B8,0.292 µg/mL
9,B9,> 10 µg/mL
10,B10,> 10 µg/mL
11,B11,0.0316 µg/mL
12,B12,> 10 µg/mL

# Target: SARS-CoV-2 Omicron BQ.1.1 spike pseudovirus
# Test: as above
# Procedure: as §1
row,Binder,pseudovirus neutralization IC50
1,B1,> 10 µg/mL
2,B2,> 10 µg/mL
3,B3,> 10 µg/mL
4,B4,2.51 µg/mL
5,B5,0.309 µg/mL
6,B6,> 10 µg/mL
7,B7,> 10 µg/mL
8,B8,> 10 µg/mL
9,B9,> 10 µg/mL
10,B10,> 10 µg/mL
11,B11,0.0983 µg/mL
12,B12,> 10 µg/mL

# Target: SARS-CoV-2 Omicron XBB spike pseudovirus
# Test: as above
# Procedure: as §1
row,Binder,pseudovirus neutralization IC50
1,B1,> 10 µg/mL
2,B2,> 10 µg/mL
3,B3,> 10 µg/mL
4,B4,> 10 µg/mL
5,B5,> 10 µg/mL
6,B6,> 10 µg/mL
7,B7,> 10 µg/mL
8,B8,> 10 µg/mL
9,B9,> 10 µg/mL
10,B10,> 10 µg/mL
11,B11,0.183 µg/mL
12,B12,> 10 µg/mL

# Target: SARS-CoV-2 early D614G spike pseudovirus
# Test: as above
# Procedure: as §1
row,Binder,pseudovirus neutralization IC50
1,B1,0.168 µg/mL
2,B2,0.00876 µg/mL
3,B3,0.0291 µg/mL
4,B4,0.0035 µg/mL
5,B5,0.00262 µg/mL
6,B6,0.55 µg/mL
7,B7,6.24 µg/mL
8,B8,> 10 µg/mL
9,B9,7.34 µg/mL
10,B10,0.223 µg/mL
11,B11,0.0837 µg/mL
12,B12,> 10 µg/mL

# From the supplement of paper PMC9931576
